Assay results taken from patent publication US9907812B2, “Conjugate-based antifungal and antibacterial prodrugs” (VYOME BIOSCIENCES PVT. LTD., priority 2011, dated 2018).

Key:
[1] = test system: Malassezia furfur (MTCC 1374); assay: MIC by agar plate dilution (Leeming Notman medium); assay type: cell-based; settings: M. furfur, MIC = concentration that inhibits 100% growth
[2] = test system: Malassezia furfur (MTCC 1374); assay: Time kill kinetics assay; settings: 0.25 μg/ml, 4 hr (FIG. 30); also valid for 0.125 to 1.0 μg/ml
[3] = test system: lipases secreted by Malassezia furfur (MTCC 1374); assay: Lipase mediated hydrolysis of ketoconazole conjugates, HPLC analysis; settings: SDB with olive oil, Day 3
[4] = 125 μg/ml prodrug, no innoculum
[5] = 125 μg/ml prodrug, with M. furfur innoculum
[6] = 250 μg/ml prodrug, no innoculum
[7] = 250 μg/ml prodrug, with M. furfur innoculum

Ketoconazole-methylene-caprylate
MIC [1]: 0.94 to 3.7 µM | speed of action in time kill assay compared to ketoconazole [2]: faster acting | ketoconazole (Keto) formed from prodrug, HPLC [3, 4]: Keto = 22.8% | remaining prodrug, HPLC [3, 4]: KMC = 77.1% | ketoconazole (Keto) formed from prodrug, HPLC [3, 5]: Keto = 78.0% | remaining prodrug, HPLC [3, 5]: KMC = 21.0% | ketoconazole (Keto) formed from prodrug, HPLC [3, 6]: Keto = 20.47% | remaining prodrug, HPLC [3, 6]: KMC = 79.5% | ketoconazole (Keto) formed from prodrug, HPLC [3, 7]: Keto = 71.7% | remaining prodrug, HPLC [3, 7]: KMC = 28.2%

Ketoconazole-methylene-laureate
MIC [1]: 1.88 to 3.7 µM

Ketoconazole-methylene-linolate
MIC [1]: 7.5 µM

Ketoconazole-methylene-oleate
MIC [1]: 1.88 to 7.5 µM

Ketoconazole-methylene-palmitate
MIC [1]: 1.88 µM

Ketoconazole-methylene-undecylenate
MIC [1]: 3.7 to 7.5 µM
